We go through one compound from publication PMC4065498 (Chemical research in toxicology, 2010).

Sequences of proteins named here, by UniProt entry; tags and fusion partners are left off.
UniProt Q99685, whole entry: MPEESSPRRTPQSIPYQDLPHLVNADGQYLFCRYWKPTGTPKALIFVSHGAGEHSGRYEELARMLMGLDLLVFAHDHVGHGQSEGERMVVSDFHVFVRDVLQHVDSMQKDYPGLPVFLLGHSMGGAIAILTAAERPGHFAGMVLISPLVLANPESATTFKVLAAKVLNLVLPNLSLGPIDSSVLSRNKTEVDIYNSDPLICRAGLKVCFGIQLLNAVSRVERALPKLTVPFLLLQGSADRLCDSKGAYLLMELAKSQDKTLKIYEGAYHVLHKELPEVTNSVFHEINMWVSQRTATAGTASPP

In general, IC50 refers to the midpoint of a concentration-inhibition curve.

In one assay the target is T1, recombinant human CES1 (Homo sapiens, UniProt P23141).
T1 sequence (P23141 18-567): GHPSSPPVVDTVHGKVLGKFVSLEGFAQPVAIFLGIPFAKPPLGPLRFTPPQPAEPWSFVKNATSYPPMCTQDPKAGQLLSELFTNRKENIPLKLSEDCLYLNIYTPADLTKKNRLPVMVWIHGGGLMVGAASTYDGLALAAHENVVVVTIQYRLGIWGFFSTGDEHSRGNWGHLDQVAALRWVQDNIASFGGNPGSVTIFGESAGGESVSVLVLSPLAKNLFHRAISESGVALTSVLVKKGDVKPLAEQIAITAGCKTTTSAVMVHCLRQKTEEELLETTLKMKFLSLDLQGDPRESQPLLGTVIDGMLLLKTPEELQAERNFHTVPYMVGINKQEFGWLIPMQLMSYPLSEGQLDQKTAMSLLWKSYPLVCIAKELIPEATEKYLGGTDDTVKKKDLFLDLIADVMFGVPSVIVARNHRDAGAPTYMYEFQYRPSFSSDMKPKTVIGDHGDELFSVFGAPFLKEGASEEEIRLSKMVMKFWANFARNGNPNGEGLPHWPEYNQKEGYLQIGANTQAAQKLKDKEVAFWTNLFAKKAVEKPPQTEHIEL
As to the kind of experiment: biochemical.

For a further assay, the target named is recombinant human MAGL (Homo sapiens, UniProt Q99685). Description: biochemical.

On to `CCOP(=O)(OCC)Oc1ccc([N+](=O)[O-])cc1` [PO, paraoxon], for which the IC50 on recombinant human CES1 is 0.077 µM; on recombinant human MAGL, above 10 µM.
